Pooled drug test results. Numbers come from NIAID ChemDB, via PubChem.

Shared fields: enzyme or target tests; species: HIV-1; target: Integrase; endpoint: IC50

Rows are shuffled and stem from different studies. Two numbers with a dash give a range or band. Blank or dashed fields: not listed here. ICn: concentration for n% inhibition.

structure	mutations	method	value
CCOP(=O)(CNC(=O)c1c(O)c2ncc(Cc3ccc(F)cc3)cc2n(C)c1=O)OCC		strand transfer	<0.1 µM
O=C1NC(=O)C(=Cc2cc(O)c(O)c(O)c2)C(=O)N1		disintegration	5.3 µM
O=C(CNC(=O)c1cnc2ccccc2n1)NCCCNC(=O)CNC(=O)c1cnc2ccccc2n1		3′ processing / substrate cleavage	200 µM
C[C@@H]1CCO[C@H]2Cn3cc(C(=O)NCc4ccc(F)cc4F)c(=O)c(O)c3CN12	Y143R		0.025 µM
CCOC(=O)C1Sc2ccccc2C(=O)n2cccc21		3′ processing	>1000 µM
CN1C/C(=C\c2ccc(O)c([N+](=O)[O-])c2)C(=O)/C(=C/c2ccc(O)c([N+](=O)[O-])c2)C1		3′ processing	>100 µM
NC(N)=NC(N)=Nc1ccc(S(=O)(=O)c2ccc(N=C(N)N=C(N)N)cc2)cc1		3′ processing	>100 µM
C/C=C/[C@@H]1C=C[C@@H]2C[C@H](C)CC[C@H]2[C@]1(C)/C(O)=C1/C(=O)[C@H](CO)N(C)C1=O		strand transfer	15–20 µM
CC1CCC(C2=NCCc3ccc([C@@H]4CC4c4ccc5cc(C(=N)N)ccc5c4)cc32)CC1		strand transfer	19 µM
CC(=O)c1cc(S(=O)(=O)c2ccc(O)c(C(C)=O)c2)ccc1O		strand transfer	>100 µM
Cn1c(=O)c(C(=O)NCCCP(=O)(O)O)c(O)c2ncc(Cc3ccc(F)cc3)cc21		strand transfer	<0.1 µM
C[C@@H]1CC[C@]23COC(=O)C2=CCCC3[C@@]1(C)C[C@@H](O)C1=CC(=O)OC1		strand transfer / absorbance	33.36 µM
O=C1/C(=C/c2ccc(O)c([N+](=O)[O-])c2)CN(Cc2ccccc2)C/C1=C\c1ccc(O)c([N+](=O)[O-])c1		3′ processing	>100 µM
CCOP(=O)(CCNC(=O)c1c(O)c2ncc(Cc3ccc(F)cc3)cc2[nH]c1=O)OCC		strand transfer	<0.1 µM
C[C@@H]1CC[C@@]2(C)C(C(=O)O)=CC(=O)CC2[C@@]1(C)CCC1=CC(=O)OC1O		strand transfer / absorbance	>50 µM
O=C1NC(=S)NC(=O)C1=Cc1cc(O)c(O)c(O)c1		disintegration	2.1 µM
N=C(N)c1ccc2cc(C#Cc3ccc4ccc(-c5ccccc5)cc4c3)ccc2c1		strand transfer	3.2 µM
C[C@H](OC(=O)/C=C/c1ccc(O)c(O)c1)[C@H](C)OC(=O)/C=C/c1ccc(O)c(O)c1		3′ processing	38.4 µM
O=C1/C(=C/c2ccc(O)c(O)c2)CCC/C1=C\c1ccc(O)c(O)c1		3′ processing	0.9 µM
N=C(N)c1ccc2cc(C#Cc3ccccc3)ccc2c1		strand transfer	22 µM
O=C(O)c1ccc2ccc(/C=C/c3cc(O)c(O)c(O)c3)nc2c1O		disintegration	1 µM
CC(C)C1=NCCc2ccc([C@@H]3CC3c3ccc4cc(C(=N)N)ccc4c3)cc21		strand transfer	183 µM
O=c1c(O)c(-c2cc(O)c(O)c(O)c2)oc2cc(O)ccc12		substrate cleavage	5.9 µM
O=C1C=CC(=O)c2c(O)ccc(O)c21		strand transfer	2.5 µM
N=C(N)c1ccc2cc(C#Cc3ccc(CO)cc3)ccc2c1		strand transfer	3.2 µM
C[C@@H]1O[C@@H](Oc2c(-c3cc(O)c(O)c(O)c3)oc3cc(O)cc(O)c3c2=O)[C@H](O)[C@H](O)[C@H]1O		substrate cleavage	39.6 µM
O=[N+]([O-])c1cccc(S(=O)(=O)c2ccc(F)c([N+](=O)[O-])c2)c1		3′ processing	>100 µM
C/C=C/C=C/[C@H]1C(C)=C[C@H]2C[C@@H](C)CC[C@@H]2[C@@]1(C)/C(O)=C1/C(=O)[C@H](CO)N(C)C1=O		strand transfer	15–20 µM
C[C@@H]1CC[C@@]23COC(=O)C2=CCCC3[C@@]1(C)CCC1=CCOC1=O		strand transfer / absorbance	39.7 µM
O=[N+]([O-])c1ccc(S(=O)(=O)c2ccc([N+](=O)[O-])cc2C(F)(F)F)c(C(F)(F)F)c1		3′ processing	>100 µM
CCOP(=O)(CCCCNC(=O)c1c(O)c2ncc(Cc3ccc(F)cc3)cc2n(C)c1=O)OCC		strand transfer	<0.1 µM
Cc1ccc(S(=O)(=O)c2c(C)cc(C)cc2C)cc1		strand transfer	>100 µM
O=C1/C(=C/c2ccc(O)c([N+](=O)[O-])c2)CNC/C1=C\c1ccc(O)c([N+](=O)[O-])c1		strand transfer	>100 µM
O=C1c2ccccc2SCC2CSC(c3ccccc3)N12		strand transfer	332 µM
Cn1c(=O)c(C(=O)NCP(=O)(O)O)c(O)c2ncc(Cc3ccc(F)cc3)cc21		strand transfer	<0.1 µM
CN(C)Cc1ccc2n1C(=O)c1ccccc1SC2c1ccc(F)cc1		3′ processing	>1000 µM
O=[N+]([O-])c1cc(S(=O)(=O)c2ccc(S)c([N+](=O)[O-])c2)ccc1S		disintegration	13 µM
CN1C/C(=C\c2cc(O)c(O)c(O)c2)C(=O)/C(=C/c2cc(O)c(O)c(O)c2)C1		disintegration	1 µM
O=Cc1cc(S(=O)(=O)c2ccc(O)c(C=O)c2)ccc1O		disintegration	5.7 µM
O=C(/C=C/c1ccc(O)c(O)c1)NCCOC(=O)/C=C/c1ccc(O)c(O)c1		3′ processing	27.5 µM
O=[N+]([O-])c1ccccc1S(=O)(=O)c1ccc(Cl)cc1		3′ processing	>100 µM
CN1CCC(C2Sc3ccccc3C(=O)N3CCCC23)CC1		strand transfer	>125 µM

Repeating the first 5 entries:

structure | mutations | method | value
CCOP(=O)(CNC(=O)c1c(O)c2ncc(Cc3ccc(F)cc3)cc2n(C)c1=O)OCC |  | strand transfer | <0.1 µM
O=C1NC(=O)C(=Cc2cc(O)c(O)c(O)c2)C(=O)N1 |  | disintegration | 5.3 µM
O=C(CNC(=O)c1cnc2ccccc2n1)NCCCNC(=O)CNC(=O)c1cnc2ccccc2n1 |  | 3′ processing / substrate cleavage | 200 µM
C[C@@H]1CCO[C@H]2Cn3cc(C(=O)NCc4ccc(F)cc4F)c(=O)c(O)c3CN12 | Y143R |  | 0.025 µM
CCOC(=O)C1Sc2ccccc2C(=O)n2cccc21 |  | 3′ processing | >1000 µM